PubChem BioAssay AID1224833 | University of Georgia, 2016
This is an unselected part of about 12,000 deposited reagents. Over the whole deposit, about 5,600 (46%) are marked active. 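Active calls cover z-scores past 1 in both directions, so they include lowered as well as raised rotavirus replication.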 No sequences are given here.

- Purpose: 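Human genes whose knock-down alters rotavirus replication in monkey cells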 (primary screen)
- Cells: monkey MA104 kidney cells
- Reagents: siRNA pool against human genes, 50 nM
- Time to read-out: 48 h knock-down before infection; read 24 h after infection
- Treatment: infection with rotavirus strain RV3 two days after transfection; infectious dose for this stage not given
- Read-out: 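Rotavirus antigen per well by fluorescent immunoassay, normalised to non-targeting control wells on each plate and given as a standard z-score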
- Direction: z-score vs non-targeting control: higher = more rotavirus replication than with non-targeting control
- Rule for the call: In these data the active calls have z-score vs non-targeting control at about -1 or lower, or at about 1 or higher
- Calls: active = z-score beyond 1 either way; inactive = z-score within 1 of zero

| target | z-score vs non-targeting control | Outcome |
| --- | --- | --- |
| SELL (GeneID 6402) | -0.87 | inactive |
| GPATCH4 (GeneID 54865) | 0.74 | inactive |
| RPGRIP1 (GeneID 57096) | -2.17 | active |
| LPL (GeneID 4023) | 0.523 | inactive |
| SULT6B1 (GeneID 391365) | -1.1 | active |
| GPR142 (GeneID 350383) | -0.64 | inactive |
| FGFBP1 (GeneID 9982) | 1.58 | active |
| BIVM (GeneID 54841) | 0.461 | inactive |
| CFAP70 (GeneID 118491) | 1.61 | active |
| GYPC (GeneID 2995) | -1.82 | active |
| CD1B (GeneID 910) | -1.53 | active |
| ZNF620 (GeneID 253639) | 0.355 | inactive |
| HDX (GeneID 139324) | -0.797 | inactive |
| SLC17A3 (GeneID 10786) | -1.06 | active |
| ZAN (GeneID 7455) | 0.608 | inactive |
| SETD5 (GeneID 55209) | -0.539 | inactive |
| HLA-DRA (GeneID 3122) | -2.25 | active |
| PSME3 (GeneID 10197) | -0.158 | inactive |
| UGT1A8 (GeneID 54576) | -1.7 | active |
| GRP (GeneID 2922) | -0.17 | inactive |
| BLOC1S4 (GeneID 55330) | -1.91 | active |
| OR4Q3 (GeneID 441669) | -1.56 | active |
| C2CD5 (GeneID 9847) | -1.58 | active |
| LSP1 (GeneID 4046) | -0.546 | inactive |
| SINHCAF (GeneID 58516) | -0.437 | inactive |
| KIF26B (GeneID 55083) | 1.21 | active |
| NIPA2 (GeneID 81614) | -0.763 | inactive |
| OR5B3 (GeneID 441608) | 0.702 | inactive |
| TBL1XR1 (GeneID 79718) | 1.1 | active |
| PRPH (GeneID 5630) | -0.202 | inactive |
| KANK1 (GeneID 23189) | -2 | active |
| ASCL1 (GeneID 429) | 0.638 | inactive |
| HOXD1 (GeneID 3231) | -0.848 | inactive |
| ACOX3 (GeneID 8310) | -1.72 | active |
| PGRMC1 (GeneID 10857) | -0.649 | inactive |
| CYP21A2 (GeneID 1589) | -3.52 | active |
| HNRNPR (GeneID 10236) | 0.305 | inactive |
| GAS1 (GeneID 2619) | 0.777 | inactive |
| MAPRE3 (GeneID 22924) | -3.31 | active |
| VMA22 (GeneID 84317) | 1.61 | active |
| OR2C1 (GeneID 4993) | -0.544 | inactive |
| PFN1 (GeneID 5216) | -0.155 | inactive |
| IER3IP1 (GeneID 51124) | 1.11 | active |
| RPAP1 (GeneID 26015) | -1.56 | active |
| CFHR2 (GeneID 3080) | 1.44 | active |
| FGL2 (GeneID 10875) | -0.966 | inactive |
| MAMDC2 (GeneID 256691) | 0.334 | inactive |
| SNX15 (GeneID 29907) | -1.03 | active |
| P2RY4 (GeneID 5030) | -2.15 | active |
| CAPNS1 (GeneID 826) | 0.641 | inactive |
| GGA3 (GeneID 23163) | -1.25 | active |
| ANAPC16 (GeneID 119504) | -0.416 | inactive |
| GCKR (GeneID 2646) | -3.16 | active |
| HSPE1 (GeneID 3336) | -1.09 | active |
| TAS1R1 (GeneID 80835) | 0.31 | inactive |
| RADX (GeneID 55086) | 0.555 | inactive |
| YWHAQ (GeneID 10971) | -1.28 | active |
| OXTR (GeneID 5021) | 0.924 | inactive |
| PSIP1 (GeneID 11168) | -0.488 | inactive |
| EIF1AX (GeneID 1964) | -0.586 | inactive |
| SMS (GeneID 6611) | 0.529 | inactive |
| MMS22L (GeneID 253714) | 1.14 | active |
| ZBTB4 (GeneID 57659) | 0.533 | inactive |
| SAP30 (GeneID 8819) | -1.11 | active |
| DCANP1 (GeneID 140947) | 0.376 | inactive |
| SOX10 (GeneID 6663) | 1.35 | active |
| IL1R2 (GeneID 7850) | -0.771 | inactive |
| BNIP3L (GeneID 665) | 0.966 | inactive |
| ZRSR2 (GeneID 8233) | 0.654 | inactive |
| AP1G2 (GeneID 8906) | -1.41 | active |
| CDH8 (GeneID 1006) | -1.49 | active |
| ZBED1 (GeneID 9189) | -2.45 | active |
| OR51E1 (GeneID 143503) | -1.01 | active |
| SESN3 (GeneID 143686) | -2.09 | active |
| AKAP8 (GeneID 10270) | -0.822 | inactive |
| MEN1 (GeneID 4221) | 2.1 | active |
| BARHL1 (GeneID 56751) | -1.63 | active |
| BCAT1 (GeneID 586) | -0.712 | inactive |
| TNFRSF13C (GeneID 115650) | 0.27 | inactive |
| RGCC (GeneID 28984) | 1.1 | active |
| MON2 (GeneID 23041) | 1.14 | active |
| PRDX5 (GeneID 25824) | 1.3 | active |
| CERS4 (GeneID 79603) | -0.307 | inactive |
| OR5A2 (GeneID 219981) | 0.315 | inactive |
| SPATA31H1 (GeneID 84226) | -0.914 | inactive |
| SDC1 (GeneID 6382) | 0.82 | inactive |
| MIDN (GeneID 90007) | 1.22 | active |
| ADAP2 (GeneID 55803) | 0.0688 | inactive |
| POSTN (GeneID 10631) | -2.32 | active |
| RPP25L (GeneID 138716) | 1.43 | active |
| MORF4L1 (GeneID 10933) | 0.0971 | inactive |
| PCDHGA9 (GeneID 56107) | 0.193 | inactive |
| KHDRBS1 (GeneID 10657) | -1.18 | active |
| KAZALD1 (GeneID 81621) | -1.88 | active |
| SLC11A2 (GeneID 4891) | 0.812 | inactive |
| CNKSR2 (GeneID 22866) | -1.68 | active |
| TMEM51 (GeneID 55092) | -1.59 | active |
| DLL4 (GeneID 54567) | 1.19 | active |
| OR1A1 (GeneID 8383) | -0.792 | inactive |
| OXA1L (GeneID 5018) | -1.14 | active |
| SEC61A2 (GeneID 55176) | -0.802 | inactive |
| EXOC3L4 (GeneID 91828) | -1.28 | active |
| H4C12 (GeneID 8362) | -1.33 | active |
| NECAB2 (GeneID 54550) | 1.06 | active |
| USP53 (GeneID 54532) | 1.35 | active |
| RPS13 (GeneID 6207) | -0.094 | inactive |
| PCDHB7 (GeneID 56129) | -0.846 | inactive |
| CD22 (GeneID 933) | -3.14 | active |
| BASP1 (GeneID 10409) | -1.93 | active |
| AMOT (GeneID 154796) | -1.08 | active |
| CES2 (GeneID 8824) | -1.78 | active |
| RFXAP (GeneID 5994) | 2.17 | active |
| CD226 (GeneID 10666) | -1.21 | active |
| PRUNE1 (GeneID 58497) | -0.523 | inactive |
| GGT1 (GeneID 2678) | 0.504 | inactive |
| S100A8 (GeneID 6279) | -1.14 | active |
| KRTAP12-2 (GeneID 353323) | 0.325 | inactive |
| RPS27A (GeneID 6233) | -4.02 | active |
| UBB (GeneID 7314) | 1.4 | active |
| KRT76 (GeneID 51350) | -0.413 | inactive |
| LRCH3 (GeneID 84859) | -1.37 | active |
| SUMF2 (GeneID 25870) | -1.13 | active |
| BBOX1 (GeneID 8424) | -1.93 | active |
| ARID5B (GeneID 84159) | -0.423 | inactive |
| GBA3 (GeneID 57733) | -1.01 | active |
| CENPH (GeneID 64946) | -0.0733 | inactive |
| NQO1 (GeneID 1728) | 1.97 | active |
| IPO4 (GeneID 79711) | -0.38 | inactive |
| NBR1 (GeneID 4077) | 1.48 | active |
| ADHFE1 (GeneID 137872) | -1.22 | active |
| PCDHAC2 (GeneID 56134) | 1.12 | active |
| ZNF550 (GeneID 162972) | -0.139 | inactive |
| CCDC86 (GeneID 79080) | 0.59 | inactive |
| CYP2B6 (GeneID 1555) | 0.892 | inactive |
| RERE (GeneID 473) | -0.53 | inactive |
| SH3GL1 (GeneID 6455) | 0.592 | inactive |
| AQP2 (GeneID 359) | -1.06 | active |
| SLC2A8 (GeneID 29988) | 1.31 | active |
| MYO1F (GeneID 4542) | 0.305 | inactive |
| CDCA5 (GeneID 113130) | -0.696 | inactive |

8 of these entries, set out differently:
target	z-score vs non-targeting control	Outcome
GPATCH4 (GeneID 54865)	0.74	inactive
RPGRIP1 (GeneID 57096)	-2.17	active
LPL (GeneID 4023)	0.523	inactive
SULT6B1 (GeneID 391365)	-1.1	active
GPR142 (GeneID 350383)	-0.64	inactive
FGFBP1 (GeneID 9982)	1.58	active
BIVM (GeneID 54841)	0.461	inactive
CFAP70 (GeneID 118491)	1.61	active
